{"source": "patent US20090291885A1", "about": "“Conjugated toxin peptide therapeutic agents” (published 2009)", "key": {"[1]": {"biological_target": "T1, human Kv1.1 channel (human), Q09470", "T1 chain": "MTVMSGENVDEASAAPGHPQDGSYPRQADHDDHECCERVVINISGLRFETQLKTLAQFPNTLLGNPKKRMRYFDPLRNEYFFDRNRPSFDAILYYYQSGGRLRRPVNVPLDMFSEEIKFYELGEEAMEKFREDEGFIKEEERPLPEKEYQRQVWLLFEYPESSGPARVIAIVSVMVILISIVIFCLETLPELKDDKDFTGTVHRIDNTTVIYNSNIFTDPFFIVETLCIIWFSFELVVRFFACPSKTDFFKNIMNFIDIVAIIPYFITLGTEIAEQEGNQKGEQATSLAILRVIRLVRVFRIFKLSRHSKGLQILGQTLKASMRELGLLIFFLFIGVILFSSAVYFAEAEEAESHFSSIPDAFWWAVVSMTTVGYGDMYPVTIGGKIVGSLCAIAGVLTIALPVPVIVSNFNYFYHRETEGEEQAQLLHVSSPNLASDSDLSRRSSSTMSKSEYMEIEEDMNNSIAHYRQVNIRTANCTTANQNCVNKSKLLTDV", "assay": "cell-based or functional assay"}, "[2]": {"biological_target": "human Kv1.3 channel (human), P22001", "assay": "cell-based or functional assay"}}, "data": [{"binder": "GVIINVKCKISRQCLEPCKKAGMRFGACMNGKCHCTPK (modifications not checked)", "note": "[OSK1 Alanine Analog K27A (SEQ ID NO: 1423)]", "values": [{"measurement": "Kv1.1 IC50, pM (IonWorks)", "setting": "[1]", "value": "> 3000", "unit": "pM"}, {"measurement": "Analog IC50 Divided by Ala-1 IC50, IL2", "setting": "[2]", "value": 20.3, "unit": "fold"}, {"measurement": "WB/IL-2 IC50, pM", "setting": "[2]", "value": 1230, "unit": "pM"}]}, {"binder": "GVIINVKCKASRQCLEPCKKAGMRFGKCMNGKCHCTPK (modifications not checked)", "note": "[OSK1 Alanine Analog I10A (SEQ ID NO: 1408)]", "values": [{"measurement": "Average IC50 (nM) IL-2, thapsigargin-induced, human whole blood", "setting": "[2]", "value": 0.05, "unit": "nM"}, {"measurement": "WB/IL-2 IC50, pM", "setting": "[2]", "value": 50, "unit": "pM"}]}, {"binder": "GVIINVKCKIARQCLEPCKKAGMRFGKCMNGKCHCTPK (modifications not checked)", "note": "[OSK1 Alanine Analog S11A (SEQ ID NO: 1409)]", "values": [{"measurement": "WB/IL-2 IC50, pM", "setting": "[2]", "value": 90, "unit": "pM"}]}, {"binder": "GVIINVKCKISRQCLEPCKKAAMRFGKCMNGKCHCTPK (modifications not checked)", "note": "[OSK1 Alanine Analog G22A (SEQ ID NO: 1418)]", "values": [{"measurement": "Kv1.1 IC50, pM (IonWorks)", "setting": "[1]", "value": "> 3000", "unit": "pM"}, {"measurement": "Kv1.3 IC50, pM (IonWorks)", "setting": "[2]", "value": "> 3000", "unit": "pM"}]}, {"binder": "GVIINVKCKISRQCLEPCKKAGMAFGKCMNGKCHCTPK (modifications not checked)", "note": "[OSK1 Alanine Analog R24A (SEQ ID NO: 1420)]", "values": [{"measurement": "Kv1.3 IC50, pM (IonWorks)", "setting": "[2]", "value": "> 3000", "unit": "pM"}]}, {"binder": "GVIINVKCKISRQCLEPCKKAGMRFGKCMAGKCHCTPK (modifications not checked)", "note": "[OSK1 Alanine Analog N30A (SEQ ID NO: 1425)]", "values": [{"measurement": "Kv1.1 IC50, pM (IonWorks)", "setting": "[1]", "value": "> 3000", "unit": "pM"}]}, {"binder": "GVIINVKCKISRQCLEPCKKRGMRFGKCMNGKCHCTPK (modifications not checked)", "note": "[OSK1 A21R analog]", "values": [{"measurement": "WB/IL-2 IC50", "setting": "[2]", "value": 0.09, "unit": "nM"}]}, {"binder": "GVIINVKCKISRQCLEPCKKAGMRFRKCMNGKCHCTPK (modifications not checked)", "note": "[OSK1 G26R analog]", "values": [{"measurement": "WB/IFNg IC50", "setting": "[2]", "value": 100, "unit": "nM"}]}, {"binder": "GVIINVKCKISRQCLEPCKKAGMRFGKCRNGKCHCTPK (modifications not checked)", "note": "[OSK1 M29R analog]", "values": [{"measurement": "Kv1.3 IC50, IonWorks electrophysiology", "setting": "[2]", "value": 200, "unit": "pM"}, {"measurement": "Kv1.3 Selectivity (= Kv1.1/Kv.3 IC50)", "setting": "[2]", "value": 30, "unit": "fold"}]}, {"binder": "GVIINVKCKISRQCLEPCKKAGMRFGKCMNGKCHCRPK (modifications not checked)", "note": "[OSK1 T36R analog]", "values": [{"measurement": "WB/IFNg IC50", "setting": "[2]", "value": 10.1, "unit": "nM"}]}, {"binder": "GVIINVKCKISRQCLEPCKKAGMRFGKCMNGKCHCTPR (modifications not checked)", "note": "[OSK1 K38R analog]", "values": [{"measurement": "WB/IFNg IC50", "setting": "[2]", "value": 0.04, "unit": "nM"}]}, {"binder": "GVIIEVKCKISRQCLEPCKKAGMRFGKCMNGKCHCTPK (modifications not checked)", "note": "[OSK1 N5E analog]", "values": [{"measurement": "WB/IL-2 IC50", "setting": "[2]", "value": 0.1, "unit": "nM"}]}, {"binder": "GVIINVKCKISEQCLEPCKKAGMRFGKCMNGKCHCTPK (modifications not checked)", "note": "[OSK1 R12E analog]", "values": [{"measurement": "WB/IFNg IC50", "setting": "[2]", "value": 2, "unit": "nM"}]}, {"binder": "GVIINVKCKISRQCLEPCKKAGMRFEKCMNGKCHCTPK (modifications not checked)", "note": "[OSK1 G26E analog]", "values": [{"measurement": "WB/IFNg IC50", "setting": "[2]", "value": 100, "unit": "nM"}, {"measurement": "WB/IL-2 IC50", "setting": "[2]", "value": 100, "unit": "nM"}]}, {"binder": "GVIINVKCKIRRQCLEPCKKAGMRFGKCMNGKCHCTPK (modifications not checked)", "note": "[OSK1 S11R analog]", "values": [{"measurement": "Kv1.3 IC50, whole cell patch clamp", "setting": "[2]", "value": 0.04, "unit": "nM"}]}, {"binder": "GVIINVKCKISRQCLEPCKKAGMRFGKCMNGKCECTPK (modifications not checked)", "note": "[OSK1 H34E analog]", "values": [{"measurement": "Kv1.3 Selectivity (= Kv1.1/Kv.3 IC50)", "setting": "[2]", "value": 30, "unit": "fold"}]}]}
